# Measured values from patent publication US6416735B1 (priority 1999, dated 2002).
# The chains behind the UniProt entries cited, without tags or fusion partners. Where a name states a change or a piece, a line headed by the entry shows the natural chain unless it says otherwise.
# UniProt Q05941: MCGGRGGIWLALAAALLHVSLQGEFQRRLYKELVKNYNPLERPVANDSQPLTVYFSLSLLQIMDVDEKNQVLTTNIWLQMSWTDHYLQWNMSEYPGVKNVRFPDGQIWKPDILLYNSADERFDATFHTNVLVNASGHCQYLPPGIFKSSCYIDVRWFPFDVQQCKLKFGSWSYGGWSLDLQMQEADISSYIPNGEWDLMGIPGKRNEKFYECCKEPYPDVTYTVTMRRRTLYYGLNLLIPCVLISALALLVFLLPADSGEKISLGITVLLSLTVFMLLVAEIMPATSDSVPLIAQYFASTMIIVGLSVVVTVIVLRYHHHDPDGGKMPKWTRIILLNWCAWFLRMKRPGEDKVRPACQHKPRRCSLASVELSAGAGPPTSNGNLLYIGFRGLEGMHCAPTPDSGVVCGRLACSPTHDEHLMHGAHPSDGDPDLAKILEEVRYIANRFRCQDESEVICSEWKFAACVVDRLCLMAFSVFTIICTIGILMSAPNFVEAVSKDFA
# Experiments:
# [1] = target: T1, α7 nAChR (Rattus norvegicus, UniProt Q05941); test: [^125I]iodo-MLA association and dissociation binding experiments
# [2] = target: α7 nAChRs (Rattus norvegicus, UniProt Q05941); test: [^125I]iodo-MLA brain region binding studies; details: N=2, mean±SD
# [3] = target: T1, α7 nAChR; test: [^125I]iodo-MLA saturation binding in rat cerebral cortex homogenates
substance,measurement,setting,value
[^125I]Iodo-methyllycaconitine,Koff (rate of dissociation),"[1]; 300 uM nicotine added, three experiments",0.0012 ± 0.00017 s⁻¹
same,Kobs (apparent rate of association),"[1]; approximately 0.3 nM radioligand, N=3",0.08 ± 0.02 min⁻¹
same,association t½,"[1]; one-phase exponential association, N=3",10.5 ± 3.1 min
same,Kd,"[1]; read-out: derived Kd (Koff/Kon), from rate constants",2.1 nM
same,"ratio of specific binding to specific cerebellar binding, hippocampus",[2]; hippocampus,8.2±0.9
same,"ratio of specific binding to specific cerebellar binding, striatum",[2]; striatum,1.1±0.8
same,"ratio of specific binding to specific cerebellar binding, thalamus/hypothalamus",[2]; thalamus/hypothalamus,4.2±1.4
same,Specific binding as % of total binding,"[3]; at 100 pM, rat brain cerebral cortex homogenates",70-80%
same,Bmax,"[3]; one-site model, N=6",68±3 fmol/mg protein
